The subject of the data set is RSV-A2-GFP. Put plainly: Dose response experiments, progeny virus titered on HeLa cells. In kind it is cell-based, human RSV strain A2. To be noted: ratio of EC50 (viral replication) and CC50 (cell viability). The procedure:
Dose response experiments. 1HAEo-cells were infected as described, progeny virus collected, and tittered on HeLa cells in duplicate as described in SAR 2. During initial infection in 1HAEo-cells infectious media was replaced with media containing compounds at indicated concentrations at 2 hours post infection. Proportion of virus infected cells were quantified via indirect immunofluorescence assay.
To further assess the therapeutic potential of compounds identified in SAR 1 and SAR 2, a therapeutic index (TI) of each compound was identified (e.g., ratio of […]). […] Overall, the TI was increased from 4.1 for compound 5a to 12.3 with compound 5f.

SMILES strings stand for the structures.

The results in this text go back to US11566018B2, “Treatment of infectious disease” (The Governors of the University of Alberta, priority 2018, dated 2023).

As to `COC(=O)C1(c2c(-c3ccccc3)[nH]c3ccccc23)Nc2cc(Cl)ccc2C1=O` (centres unmarked) [Compound 5a], the “therapeutic index (TI)” value was 4.1.

Take `COC(=O)C1(c2c(-c3ccc(OC)cc3)[nH]c3ccccc23)Nc2cc(Br)ccc2C1=O` (centres unmarked) [Compound 5f]: the “therapeutic index (TI)” value is on record as 12.3.
